The subject of series [1] is EBOV minigenome. Type of series: cell-based, Ebola virus. The settings on record: ratio CC50 / EC50.
Series [2] has as its system DNG (D2-hRuPac cells). The series can be described thus: DNG antiviral activity, D2-hRuPac cells, Renilla luciferase. Type of series: cell-based, Dengue fever virus. The note with it: therapeutic index CC50/EC50, DNG.
Series [3] concerns SINV (SR19-F-luc cells). The series can be described thus: SINV antiviral activity, SR19-F-luc cells, Firefly luciferase. It counts as cell-based, Sindbis virus. The settings on record: therapeutic index CC50/EC50, SINV.

The structures appear in SMILES notation.

In the case of `CCOC(=O)c1cnc2ccc(F)cc2c1Nc1ccc(S(=O)(=O)Nc2nc(C)cc(C)n2)cc1` [Compound 74], in series [1], the “EBOV TI” value is reported as 1. Moreover, in series [2], the “DNG TI” value turned out to be 18.38. The “SINV TI” value in series [3] stood at 1.

Regarding `CCOC(=O)c1cnc2c(OC)cccc2c1NCC(C)O` (stereo not drawn) [Compound 69], the “EBOV TI” value in series [1] was 0.6. In addition, the “DNG TI” value in series [2] amounted to 0.79. The “SINV TI” value in series [3] worked out at 0.93.

For `CCOC(=O)c1ccc2nc(C)cc(Nc3ccc(C)cc3C)c2c1` [Compound 51], in series [1], the “EBOV TI” value was found to be 1.07. In addition, in series [2], the “DNG TI” value is recorded as 0.92. For the same compound, the “SINV TI” value in series [3] turned out to be 4.09.

For the compound `CCOC(=O)c1cnc2c(C(F)(F)F)cccc2c1Nc1ccc(S(=O)(=O)Nc2nc(C)cc(C)n2)cc1` [Compound 72], the “EBOV TI” value in series [1] was found to be 4.34. In addition, in series [2], the “DNG TI” value is reported as 6.24. Moreover, the “SINV TI” value in series [3] is on record as 2.02.

Consider `COC(=O)c1ccc2nc(C)cc(Nc3cccc(O)c3)c2c1` [Compound 73], for which the “EBOV TI” value in series [1] was determined as 0.96. Besides, in series [2], the “DNG TI” value worked out at 4.31. Further, in series [3], the “SINV TI” value stood at 12.08.

Regarding `COc1cccc2c(Nc3ccc4c(c3)OCCO4)cc(C)nc12` [Compound 22], the “EBOV TI” value in series [1] is given as 10.78. For the same compound, in series [2], the “DNG TI” value is recorded as 1.61. Further, in series [3], the “SINV TI” value was determined as 0.79.

Take `Cc1ccc2nc3c(c(Nc4ccccc4)c2c1)CCC3` [Compound 27]: in series [1], the “EBOV TI” value was found to be 0.8. The “DNG TI” value in series [2] was found to be 1.32. The “SINV TI” value in series [3] came to 26.97.

Turning to `Cc1ccc2nc3c(c(Nc4ccc(N5CCOCC5)cc4)c2c1)CCC3` [Compound 21], the “EBOV TI” value in series [1] is 0.94. The “DNG TI” value in series [2] amounted to 2.22. The “SINV TI” value in series [3] is 3.7.

As for `Cc1cc(C)c2nc(C)cc(Nc3ccc(Cl)c(Cl)c3)c2c1` [Compound 53], the “EBOV TI” value in series [1] was determined as 0.66. Also, in series [2], the “DNG TI” value is recorded as 1.71. Besides, the “SINV TI” value in series [3] is reported as 7.35.

Regarding `Cc1cc(C)c2nc(C)cc(NCc3ccco3)c2c1` [Compound 54], the “EBOV TI” value in series [1] was found to be 0.67. Also, the “DNG TI” value in series [2] is reported as 2.29. Also, the “SINV TI” value in series [3] amounted to 1.31.

Regarding `Cc1ccc2nc(C)cc(NCc3ccco3)c2c1` [Compound 23], the “EBOV TI” value in series [1] turned out to be 0.77. The “DNG TI” value in series [2] is reported as 2.25. Moreover, the “SINV TI” value in series [3] was determined as 0.77.

For `CCOC(=O)c1cnc2c(Cl)cccc2c1NCc1ccco1` [Compound 55], in series [1], the “EBOV TI” value was 4.64. The “DNG TI” value in series [2] is reported as 5.66. The “SINV TI” value in series [3] turned out to be 0.64.

On to `COc1ccccc1Nc1cc(C)nc2c(C)c(C)cc(N)c12` [Compound 79], for which the “EBOV TI” value in series [1] is listed as 1.18. The “DNG TI” value in series [2] was found to be 6.21. Further, the “SINV TI” value in series [3] came out at 5.98.

Consider `CCOC(=O)c1cnc2c(C)cc(C)cc2c1NCCCN(C)C` [Compound 75], for which the “EBOV TI” value in series [1] is 3.27. The “DNG TI” value in series [2] was found to be 3.84. Moreover, the “SINV TI” value in series [3] came to 2.13.

Take `Cc1cc(Nc2cccc(C(F)(F)F)c2)c2cc(Cl)ccc2n1` [Compound 40]: the “EBOV TI” value in series [1] is 0.8. Also, the “DNG TI” value in series [2] was found to be 1.48. Besides, in series [3], the “SINV TI” value is 4.16.

As to `CCOC(=O)c1cnc2ccc(OCC)cc2c1NCc1ccco1` [Compound 36], in series [1], the “EBOV TI” value is 0.63. In addition, in series [2], the “DNG TI” value was 2.87. The “SINV TI” value in series [3] was found to be 0.63.

In the case of `c1ccc2cc(Nc3c4ccccc4nc4ccccc34)ccc2c1` [Compound 1], the “EBOV TI” value in series [1] is 1.33. Also, the “DNG TI” value in series [2] amounted to 6.63. In series [3], the “SINV TI” value is 1.69.

Turning to `CCOC(=O)c1ccc2ncc(C(=O)OCC)c(NCc3ccco3)c2c1` [Compound 13], the “EBOV TI” value in series [1] is reported as 5.87. In addition, the “DNG TI” value in series [2] came to 3.37. Further, the “SINV TI” value in series [3] stood at 0.79.

Regarding `CCOC(=O)c1cnc2ccc(C)cc2c1Nc1ccc(N2CCOCC2)cc1` [Compound 38], the “EBOV TI” value in series [1] was determined as 1. Also, the “DNG TI” value in series [2] worked out at 1. Further, the “SINV TI” value in series [3] turned out to be 1.

Regarding `CCOc1ccc2nc(C)cc(Nc3ccc(N(C)C)cc3)c2c1` [Compound 57], in series [1], the “EBOV TI” value came out at 0.41. Moreover, the “DNG TI” value in series [2] is 4.94. Further, the “SINV TI” value in series [3] worked out at 7.81.

With `CCOC(=O)c1cnc2ccc(OCC)cc2c1Nc1ccccc1CC` [Compound 34], the “EBOV TI” value in series [1] amounted to 0.83. Also, the “DNG TI” value in series [2] was 0.83. In addition, in series [3], the “SINV TI” value is recorded as 0.83.

For `CCOC(=O)c1ccc(Nc2cc(C)nc3c2ccc2ccccc23)cc1` [Compound 4], the “EBOV TI” value in series [1] amounted to 1.23. In series [2], the “DNG TI” value was 2.23. Further, the “SINV TI” value in series [3] worked out at 0.97.

With `COc1ccc2nc(C)cc(Nc3ccc(I)cc3)c2c1` [Compound 76], in series [1], the “EBOV TI” value is on record as 1.79. The “DNG TI” value in series [2] turned out to be 2.63. Further, the “SINV TI” value in series [3] was 13.92.

As to `CCOc1ccc2nc(C)cc(Nc3cc(Cl)ccc3OC)c2c1` [Compound 58], in series [1], the “EBOV TI” value stood at 3.78. Moreover, the “DNG TI” value in series [2] is recorded as 2.7. The “SINV TI” value in series [3] is reported as 4.44.

`Cc1ccc2nc(C)cc(N3CCC(C)CC3)c2c1` [Compound 15]: the “EBOV TI” value in series [1] amounted to 1.03. Further, the “DNG TI” value in series [2] is given as 1.01. Moreover, the “SINV TI” value in series [3] came out at 13.07.

For `CCOC(=O)c1cnc2c(C)cccc2c1NCc1ccco1` [Compound 46], the “EBOV TI” value in series [1] was 6.2. For the same compound, the “DNG TI” value in series [2] is 4.81. Further, the “SINV TI” value in series [3] is listed as 0.99.

`c1coc(CNc2c3c(nc4ccccc24)CCC3)c1` [Compound 10]: in series [1], the “EBOV TI” value is listed as 1.35. Besides, the “DNG TI” value in series [2] turned out to be 2.37. Further, the “SINV TI” value in series [3] was found to be 0.84.

As to `CCOc1ccc2nc(C)cc(Nc3ccc(OCc4ccccc4Cl)cc3)c2c1` [Compound 42], the “EBOV TI” value in series [1] was determined as 0.39. Also, the “DNG TI” value in series [2] is 5.07. For the same compound, in series [3], the “SINV TI” value was determined as 8.56.

In the case of `Cc1cc(C)c2nc(C)cc(Nc3ccc(O)cc3)c2c1` [Compound 49], the “EBOV TI” value in series [1] is recorded as 5.71. Besides, the “DNG TI” value in series [2] was determined as 2.97. Besides, the “SINV TI” value in series [3] is given as 0.52.

As for `Cc1ccc2nc3c(c(Nc4cccc(C(F)(F)F)c4)c2c1)CCC3` [Compound 26], the “EBOV TI” value in series [1] worked out at 0.71. The “DNG TI” value in series [2] amounted to 1.1. For the same compound, the “SINV TI” value in series [3] worked out at 2.87.

On to `Cc1ccc(Nc2cc(C)nc3c2ccc2ccccc23)cc1` [Compound 9], for which the “EBOV TI” value in series [1] was 1.19. Moreover, the “DNG TI” value in series [2] is 0.97. Also, the “SINV TI” value in series [3] was found to be 0.97.

As to `CCOC(=O)c1cnc2ccc(OCC)cc2c1Nc1ccc(I)cc1` [Compound 32], the “EBOV TI” value in series [1] is recorded as 1. Also, in series [2], the “DNG TI” value turned out to be 1. Further, in series [3], the “SINV TI” value stood at 1.

As for `COc1cccc2c(Nc3cccc([N+](=O)[O-])c3)cc(C)nc12` [Compound 25], the “EBOV TI” value in series [1] was 0.31. For the same compound, the “DNG TI” value in series [2] stood at 5.9. In addition, the “SINV TI” value in series [3] worked out at 10.77.

For `COC(=O)c1ccc(Nc2cc(C)nc3ccc(Cl)cc23)cc1` [Compound 60], in series [1], the “EBOV TI” value came out at 1. In addition, in series [2], the “DNG TI” value was determined as 4.93. In series [3], the “SINV TI” value amounted to 6.25.

As to `COC(=O)c1ccc(Nc2c3c(nc4ccccc24)CCC3)cc1` [Compound 8], the “EBOV TI” value in series [1] is listed as 1.38. In addition, the “DNG TI” value in series [2] is 1.22. For the same compound, the “SINV TI” value in series [3] amounted to 3.1.

On to `CCc1ccccc1Nc1cc(C)nc2c(OC)cccc12` [Compound 24], for which the “EBOV TI” value in series [1] is listed as 1.04. Further, the “DNG TI” value in series [2] amounted to 2.09. In series [3], the “SINV TI” value is listed as 3.49.

For the origin of these results see patent US20090221624A1, “4-AMINOQUINOLINE COMPOUNDS FOR TREATING VIRUS-RELATED CONDITIONS” (priority 2005, published 2009).
